Measured values: US20250109162A1, “FLEX-NUCLEOSIDE ANALOGUES, NOVEL THERAPEUTICS AGAINST VIRUSES” (UNIVERSITY OF MARYLAND, BALTIMORE COUNTY, priority 2022, published 2025)

What was measured:
[1] = tested on: Epstein-Barr virus, strain Akata; assay type: cell-based
[2] = tested on: Dengue Virus 2, strain New Guinea C; assay type: cell-based

| Compound | SI90 - CC50/EC90 [1] | SI50 - CC50/EC50 [2] |
| --- | --- | --- |
| Cc1ccc(-c2cn([C@@H]3C[C@@H](O)[C@H](CO)O3)c(=O)[nH]c2=O)s1 [CHK-03, 1-((2S,4R,5S)-4-hydroxy-5-(hydroxymethyl)tetrahydrofuran-2-yl)-5-(5-methylthiophen-2-yl)pyrimidine-2,4(1H,3H)-dione] | >5 |  |
| Nc1nc(=O)n([C@@H]2C[C@@H](O)[C@H](CO)O2)cc1-c1ccco1 [CHK-05, 4-amino-5-(furan-2-yl)-1-((2S,4R,5S)-4-hydroxy-5-(hydroxymethyl)tetrahydrofuran-2-yl)pyrimidin-2(1H)-one] | >5 | >1.3 |
| Nc1ccn(C[C@@H](CO)OCP(=O)(O)O)c(=O)n1 [Cidofovir, reference compound] | >1 |  |
| C#C[C@@]1(O)[C@H](O)[C@@H](CO)O[C@H]1n1ccc2c(N)ncnc21 [NITD008] |  | >280 and >230 |

“And” between values parts separate entries of the source, which are not always exact repeats. Equal values may be shown once.
